Laboratory results published in patent publication US11118200B2, “Method for preparing amines from aldehydes and ketones by biocatalysis” (COMMISSARIAT A L'ENERGIE ATOMIQUE ET AUX ENERGIES …, priority 2017, dated 2021).

Legend:
enzyme of SEQ ID NO:1 [1] = experiment: Reductive amination on 9 μmol scale, configuration of the amine product (UHPLC-UV-MS, chiral GC-FID); assay type: biochemical, Mycobacterium smegmatis; details: 48 h at 30° C.; for diastereoisomeric excess of the (1S)-amine formed, enzyme of SEQ ID NO:1: chiral GC-FID
enzyme of SEQ ID NO:1 [2] = experiment: Semi-preparative-scale reductive amination (1 mmol) with ammonia as amine source; assay type: biochemical, Mycobacterium smegmatis; details: for Conversion, SEQ ID NO: 1: 50 mM carbonyl-containing compound, 30° C.; for Conversion, SEQ ID NO: 1 / TTN (total turnover), SEQ ID NO: 1: enzyme loading 0.3 mg/mL
enzyme of SEQ ID NO:2 [3] = experiment: Reductive amination on 9 μmol scale, configuration of the amine product (UHPLC-UV-MS, chiral GC-FID); assay type: biochemical, Cystobacter fuscus DSM 2262; details: 48 h at 30° C.; for diastereoisomeric excess of the (1S)-amine formed, enzyme of SEQ ID NO:2: chiral GC-FID
enzyme of SEQ ID NO:2 [4] = experiment: Semi-preparative-scale reductive amination (1 mmol) with ammonia as amine source; assay type: biochemical, Cystobacter fuscus DSM 2262; details: chiral GC-FID
[5] = 30 mM carbonyl-containing compound, 0.5 mg/ml enzyme, ammonia as amine source
[6] = racemic ketone 30 mM, 0.5 mg/ml enzyme
[7] = chiral GC-FID, semi-preparative scale

`CC1CCCCC1=O` (racemic) [2-methylcyclohexanone] was tested, and the “enantiomeric excess of the (S)-amine formed, enzyme of SEQ ID NO:1” value (enzyme of SEQ ID NO:1 [1]; [5]) was 91%, the “diastereoisomeric excess of the (1S)-amine formed, enzyme of SEQ ID NO:1” value (enzyme of SEQ ID NO:1 [1]; [6]) was 91% and the “Conversion, SEQ ID NO: 1” value (enzyme of SEQ ID NO:1 [2]) was 55%. For the same molecule, the “TTN (total turnover), SEQ ID NO: 1” value (enzyme of SEQ ID NO:1 [2]) was 6847, the “enantiomeric excess of the (S)-amine formed, enzyme of SEQ ID NO:2” value (enzyme of SEQ ID NO:2 [3]; [5]) was 99% and the “diastereoisomeric excess of the (1S)-amine formed, enzyme of SEQ ID NO:2” value (enzyme of SEQ ID NO:2 [3]; [6]) was 69%.

In the case of `CC1CCCC(=O)C1` (racemic) [3-methylcyclohexanone], the “diastereoisomeric excess of the (1S)-amine formed, enzyme of SEQ ID NO:1” value (enzyme of SEQ ID NO:1 [1]; [6]) is reported as over 97%, the “diastereoisomer preferentially formed, enzyme of SEQ ID NO:1” value (enzyme of SEQ ID NO:1 [1]; racemic ketone 30 mM) is reported as “(1S, 3R)-3-methylcyclohexylamine” and the “Conversion, SEQ ID NO: 1” value (enzyme of SEQ ID NO:1 [2]) is reported as 45%. The “TTN (total turnover), SEQ ID NO: 1” value (enzyme of SEQ ID NO:1 [2]) was 5933, the “diastereoisomeric excess of the (1S)-amine formed, enzyme of SEQ ID NO:2” value (enzyme of SEQ ID NO:2 [3]; [6]) was 95% and the “diastereoisomer preferentially formed, enzyme of SEQ ID NO:2” value (enzyme of SEQ ID NO:2 [3]; racemic ketone 30 mM) was “(1S, 3R)-3-methylcyclohexylamine”.

`C[C@@H]1CCC[C@H](N)C1.Cl` [(1S, 3R)-3-methylcyclohexylamine hydrochloride] was tested, and the “cis/trans product ratio, SEQ ID NO: 1” value (enzyme of SEQ ID NO:1 [2]; [7]) was 97/3 and the “ed of the amine obtained, SEQ ID NO: 1” value (enzyme of SEQ ID NO:1 [2]; [7]) was at least 99%.

For `CCC[C@H](C)N` [(2S)-pentan-2-amine], the “ee of the amine obtained, SEQ ID NO: 2” value (enzyme of SEQ ID NO:2 [4]) was at least 97%.
